Data source: PubChem BioAssay AID1259414 (Drosophila RNAi Screening Center, 2018)
Purpose: 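Host factors increasing or decreasing Wolbachia levels in cultured fly cells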 (primary screen). Cells: Drosophila JW18 cells infected with Wolbachia. Reagent: long dsRNA against Drosophila genes, 0.25 µg dsRNA per well of a 384-well plate. Duration: 5 days. Conditions: cells persistently infected with Wolbachia before knock-down; no added drug. Read-out: 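Automated imaging of bacterial rRNA staining divided by host cell count, reported as plate-normalised robust z-score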. Direction: Wolbachia per cell robust z: higher = more Wolbachia per host cell than the plate typical. Rule for the call: 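Active if absolute robust z reaches 1.5 in two or more of three replicates, leaving out multi- or no-target dsRNAs, genes unexpressed in JW18 and A1 wells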.
In all, the deposit lists about 24,000 reagents; this is an unselected part of those that have a named target and a result. In the full data, about 1,210 (5%) got an active call. 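Inactive calls also include excluded dsRNAs with several or no targets, genes unexpressed in JW18, and well A1, regardless of score.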 Reagents against one gene are numbered here. Names joined by + are all predicted targets of the reagent.

CG15773: Wolbachia per cell robust z, rep 1 = -0.986; Wolbachia per cell robust z, rep 2 = 0.546; Wolbachia per cell robust z, rep 3 = 0.24; outcome = inactive
CG7304 #1: Wolbachia per cell robust z, rep 1 = -0.137; Wolbachia per cell robust z, rep 2 = -0.099; Wolbachia per cell robust z, rep 3 = -0.276; outcome = inactive
CG7304 #2: Wolbachia per cell robust z, rep 1 = -0.0441; Wolbachia per cell robust z, rep 2 = 0.437; Wolbachia per cell robust z, rep 3 = 0.449; outcome = inactive
CG42512 + CG32573 #1: Wolbachia per cell robust z, rep 1 = 0.222; Wolbachia per cell robust z, rep 2 = 0.107; Wolbachia per cell robust z, rep 3 = 1.64; outcome = inactive
CG42512 + CG32573 #2: Wolbachia per cell robust z, rep 1 = -0.638; Wolbachia per cell robust z, rep 2 = 0.6; Wolbachia per cell robust z, rep 3 = 0.301; outcome = inactive
CG5446: Wolbachia per cell robust z, rep 1 = 0.944; Wolbachia per cell robust z, rep 2 = 1.27; Wolbachia per cell robust z, rep 3 = -0.231; outcome = inactive
Idgf6 (Imaginal disc growth factor 6) #1: Wolbachia per cell robust z, rep 1 = -5.95; Wolbachia per cell robust z, rep 2 = -0.322; Wolbachia per cell robust z, rep 3 = -0.128; outcome = inactive
Idgf6 (Imaginal disc growth factor 6) #2: Wolbachia per cell robust z, rep 1 = -0.373; Wolbachia per cell robust z, rep 2 = 0.285; Wolbachia per cell robust z, rep 3 = -0.37; outcome = inactive
sip3 (septin interacting protein 3) #1: Wolbachia per cell robust z, rep 1 = 1.74; Wolbachia per cell robust z, rep 2 = 1.77; Wolbachia per cell robust z, rep 3 = 1.08; outcome = active
sip3 (septin interacting protein 3) #2: Wolbachia per cell robust z, rep 1 = 0.993; Wolbachia per cell robust z, rep 2 = 1.42; Wolbachia per cell robust z, rep 3 = 1.71; outcome = inactive
rig (rigor mortis) #1: Wolbachia per cell robust z, rep 1 = 1.33; Wolbachia per cell robust z, rep 2 = 1.62; Wolbachia per cell robust z, rep 3 = 0.0102; outcome = inactive
rig (rigor mortis) #2: Wolbachia per cell robust z, rep 1 = -0.147; Wolbachia per cell robust z, rep 2 = 0.55; Wolbachia per cell robust z, rep 3 = -2.28; outcome = inactive
eff (effete) #1: Wolbachia per cell robust z, rep 1 = -0.696; Wolbachia per cell robust z, rep 2 = 1.36; Wolbachia per cell robust z, rep 3 = 1.03; outcome = inactive
eff (effete) #2: Wolbachia per cell robust z, rep 1 = 0.749; Wolbachia per cell robust z, rep 2 = 0.473; Wolbachia per cell robust z, rep 3 = -0.539; outcome = inactive
bond (james bond) #1: Wolbachia per cell robust z, rep 1 = -1.79; Wolbachia per cell robust z, rep 2 = -0.106; Wolbachia per cell robust z, rep 3 = -0.0405; outcome = inactive
bond (james bond) #2: Wolbachia per cell robust z, rep 1 = 2.48; Wolbachia per cell robust z, rep 2 = -0.84; Wolbachia per cell robust z, rep 3 = 1.33; outcome = inactive

Reagents listed so far called active (1):
sip3 (septin interacting protein 3) #1: Wolbachia per cell robust z, rep 1 = 1.74; Wolbachia per cell robust z, rep 2 = 1.77; Wolbachia per cell robust z, rep 3 = 1.08; outcome = active
